Pooled drug test results. Numbers come from NIAID ChemDB, via PubChem.

All rows: tests in culture; species: HIV-1; measure: fold resistance

Rows are shuffled and stem from different studies.

structure,cell line,changes,method,strain,result
Cc1cn([C@H]2C=C[C@@H](CO)O2)c(=O)[nH]c1=O,HeLa,RT-M184V,luciferase,Recombinant,1.3
Cc1ccc(NC(=O)CSc2nnc(C)n2-c2c(C)ccc3ccccc23)c(Cl)c1,HeLa + HeLa-JC53,RT-Y188L,luciferase,NL4-3,200
Cc1cn([C@H]2C=C[C@@H](CO)O2)c(=O)[nH]c1=O,PBMC,RT-D67N T69N K70R M184V T215F K219Q,RT activity,7295-1 NRTI resistant recombinant,1.9
Cn1c2ccccc2c2c1cc(C#N)c(=O)n2-c1ccc([N+](=O)[O-])cc1,HeLa,RT-M184V,luciferase,NRTI resistant,3
Nc1ccn([C@@H]2CO[C@H](CO)S2)c(=O)n1,C8166,RT-D67N K70R T215Y K219Q,p24,HXB2,2.27
O=c1[nH]cnc2c1ncn2[C@H]1CC[C@@H](CO)O1,PBMC,RT-M184V,p24,Recombinant,2.5
O=c1[nH]cnc2c1ncn2[C@H]1CC[C@@H](CO)O1,MT-2,RT-A62V V75I F77L F116Y Q151M,p24,RT A62V/V75I/F77L/F116Y/Q151M,13.3
CC(C)c1c(CO)cn(Cc2ccncc2)c1Sc1cc(Cl)cc(Cl)c1,C8166,RT-Y181C,p24,,<56.7
Cc1cn([C@H]2C[C@H](N=[N+]=[N-])[C@@H](CO)O2)c(=O)[nH]c1=O,H9,RT-K101I K103N Y181C G190A,p24,B8 (RT K101I K103N Y181C G190A),~1
Nc1ccn([C@H]2C[C@H](O)[C@](CO)(CF)O2)c(=O)n1,HeLa,RT-K65R,β-galactosidase,,0.0708
CC(C)(C)C(=O)c1sc(C(=O)NCCc2ccccc2)c(O)c1O,,IN-T66I S153Y N155S,,,>33
CC(C)CN(C[C@@H](O)[C@H](Cc1ccccc1)NC(=O)O[C@H]1CCOC1)S(=O)(=O)c1ccc(N)cc1,PBMC,PR-L10I K14R R41K M46L I54V L63P A71V V82A L90M I93L,p24,Clinical isolate,6.4
CC[C@H]1C(=O)Nc2ccc(F)cc2N1C(=O)OC(C)C,CEM,RT-K103N Y144F,cytopathic effect,P-1 (RT-K103N Y144F),50
CCNc1cccnc1N1CCN(C(=O)c2cc3cc(OC)ccc3[nH]2)CC1,PBL,TIBO-resistant,syncytia,D34,>3330
CC(C)c1nc(CN(C)C(=O)N[C@H](C(=O)N[C@@H](Cc2ccccc2)C[C@H](O)[C@H](Cc2ccccc2)NC(=O)OCc2cncs2)C(C)C)cs1,PBMC,PR-L10I K43T M46L I54L L63P A71T V82A L90M Q92K,p24,Clinical isolate,>23
Cc1cn([C@H]2C=C[C@@H](CO)O2)c(=O)[nH]c1=O,MT-2,RT-delta67 T69G,p24,,9.4
CC(C)(C)NC(=O)[C@@H]1CN(Cc2cccnc2)CCN1C[C@@H](O)C[C@@H](Cc1ccccc1)C(=O)N[C@H]1c2ccccc2C[C@H]1O,PBMC,PR-L10I K14R R41K M46L I54V L63P A71V V82A L90M I93L,p24,Clinical isolate,23.1
Nc1nc(=O)n([C@H]2CO[C@@H](CO)S2)cc1F,CBMC,RT-M184I,RT activity,HXB2D(RT-M184I),1.03
Nc1ccn([C@H]2CC[C@@H](CO)O2)c(=O)n1,H9,RT-K65R,p24,HXB2D (RT-K65R),8.67
O=c1[nH]cnc2c1ncn2[C@H]1CC[C@@H](CO)O1,PBMC,RT-M41L T69ins L74V M184V L210W T215Y,RT activity,52534-2 NRTI resistant recombinant,3.3
Nc1nc2c(ncn2[C@H]2CO[C@@H](CO)O2)c(=O)[nH]1,,RT-S68G Q151M T215Y,,RT-68G 151M 215Y,5
Cc1ccc(NC(=O)CSc2nnc(C)n2-c2ccc(C)c3ccccc23)c(Cl)c1,HeLa + HeLa-JC53,RT-K103N Y181C,luciferase,NL4-3,16
CCN1c2ncc(CCOc3ccc(CC(=O)O)c4ccccc34)cc2C(=O)N(C)c2ccc(F)nc21,C8166,RT-K103N Y181C,p24,,1
Nc1nc2c(ncn2[C@H]2CO[C@@H](CO)O2)c(=O)[nH]1,,RT-M41L D67N V106A M184V T215Y,,,~1.2
O=c1[nH]cnc2c1ncn2[C@H]1CC[C@@H](CO)O1,MAGI (CCR5) + MAGI,RT-M184V,β-galactosidase,HXB2,0.97
Nc1ccn([C@H]2C=C[C@@H](CO)O2)c(=O)n1,CD4+HELA + HeLa,RT-V75T,plaque count,HXB2,4.63
CCc1cc([C@](C#CC2CC2)(OCc2ccccc2)C(F)(F)F)c(=O)[nH]c1C,,RT-L100I K103N,,,14.52
Cc1cn([C@H]2C[C@H](N=[N+]=[N-])[C@@H](CO)O2)c(=O)[nH]c1=O,HT4 + HT4-6C,RT-D67N K70R T215Y K219Q,plaque count,clinical isolate A018C (RT D67N K70R T215Y K219Q),230
Cc1cn([C@H]2C[C@H](N=[N+]=[N-])[C@@H](CO)O2)c(=O)[nH]c1=O,CEM,RT-L100V K103R/K Y188H,cytopathic effect,B-1 (RT L100V K103R/K Y188H),2
Nc1ccn([C@H]2CC[C@@H](CO)O2)c(=O)n1,HELA-CD4+,RT-T69D,plaque count,JF4A (RT-T69D),5.2
Cc1cn([C@H]2C[C@H](N=[N+]=[N-])[C@@H](CO)O2)c(=O)[nH]c1=O,CBMC,RT-D67G,RT activity,HxB2D(RT-D67G),0.636
Cc1ccc(NC(=O)CSc2nnc(C)n2-c2cccc3ccccc23)c(Cl)c1,HeLa + HeLa-JC53,RT-K103N Y181C,luciferase,NL4-3,13
Nc1nc(NC2CC2)c2ncn([C@H]3C=C[C@@H](CO)C3)c2n1,MT-2,RT-K103N,p24,,1.8
Nc1nc(=O)n([C@H]2CS[C@@H](CO)O2)cc1F,HELA/CD4 + HELA CD4+,RT-M184I,plaque count,HXB2,0.248
Cc1occc1C(=S)Nc1ccc(Cl)c(/C=N/OC(C)(C)C)c1,CEM + CEM-SS,RT-Y188H,cytopathic effect / XTT,Costatolide-resistant (RT Y188H),8
CC(C)(O)c1cccc(CN2C(=O)N(Cc3cccc(C(C)(C)O)c3)[C@H](Cc3ccccc3)[C@H](O)[C@@H](O)[C@H]2Cc2ccccc2)c1,MT-2/MT-4 + MT-2,PR-V82F/184V,p24,HXB2,260
Cc1cn([C@H]2C[C@H](N=[N+]=[N-])[C@@H](CO)O2)c(=O)[nH]c1=O,HeLa,RT-K65R,luciferase,NRTI resistant,0.6
Cc1cn([C@H]2C[C@H](N=[N+]=[N-])[C@@H](CO)O2)c(=O)[nH]c1=O,PBMC,RT-T69K K70G V75I F77L F116Y Q151M M184V,RT activity,56252-1 NRTI resistant recombinant,>1000
CC(C)OC(=O)OCOP(=O)(CO[C@H](C)Cn1cnc2c(N)ncnc21)OCOC(=O)OC(C)C,MT-2,RT-K103N Y181C,p24,A17,0.0474
Cc1cc(S(N)(=O)=O)ccc1NC(=O)COc1ccc(Cl)cc1C(=O)c1cc(Cl)cc(C#N)c1,MAGI,RT-G190E,β-galactosidase,NNRTI-resistant (RT G190E),1.35
C#C[C@]1(CO)O[C@@H](n2cnc3c(N)nc(F)nc32)CC1O,MAGIC-5A,M184V,β-galactosidase / absorbance,NL4-3,9
CCCCCCCCCCCCSCC(COP(=O)([O-])OCC[N+](C)(C)C)OCCCCCCCCC(=O)OCC(=O)OC[C@H]1O[C@@H](n2cc(C)c(=O)[nH]c2=O)C[C@@H]1N=[N+]=[N-],CEM-SS,RT-T215F A98S D67N K219Q,plaque count,5346/5652-MDR (RT T215F A98S D67N K219Q) Drug-resistant,1
Cc1cn([C@H]2C[C@H](N=[N+]=[N-])[C@@H](CO)O2)c(=O)[nH]c1=O,PBMC,RT-V75I,p24,Recombinant,0
Cc1ccnc2c1NC(=O)c1cccnc1N2C1CC1,MAGI (CCR5) + MAGI,RT-M184V,β-galactosidase,NL4-3,1.08
CCc1c(C(=O)c2cc(C)cc(C)c2)n(CC2CC=CC2)c(=O)[nH]c1=O,CEM + CEM-SS,RT-L74V,cytopathic effect / XTT,NL4-3,0.1
Nc1ccn([C@H]2CC[C@@H](CO)O2)c(=O)n1,CD4+HELA + HeLa,RT-V75T 184V,plaque count,HXB2,28.6
Cc1ccnc2c1NC(=O)c1cccnc1N2C1CC1,HT4 + HT4 LacZ-1,RT-Y181C,plaque count,HXB2,210
Cc1c(O)cccc1C(=O)N[C@@H](CSc1ccccc1)[C@H](O)CN1C[C@H]2CCCC[C@H]2C[C@H]1C(=O)NC(C)(C)C,PBMC,PR-L10R N37D M46I I62V L63P A71V G73S V77I V82T L90M I93L,p24,Clinical isolate,>43.5
CC(C)[C@H](NC(=O)c1ccc2ccccc2n1)C(=O)N[C@@H](Cc1ccccc1)[C@H](O)CN1CC[C@@H](SCc2cccnc2)C[C@H]1C(=O)NC(C)(C)C,C8166,PR-I84V,p24,BILA2185-resistant (PR I84V),2
COc1ccc(-n2c(C)nnc2SCC(=O)Nc2ccc(C)cc2Cl)c2ccccc12,HeLa + HeLa-JC53,RT-Y188L,luciferase,NL4-3,240
CC(C)[C@H](NC(=O)c1ccc2ccccc2n1)C(=O)N[C@@H](Cc1ccccc1)[C@H](O)CN1CC[C@@H](SCc2cccnc2)C[C@H]1C(=O)NC(C)(C)C,C8166,PR-M46I A71V I84A,p24,WT1906-R33 (PR M46I A71V I84A),326
Nc1nc(=O)n([C@@H]2CO[C@H](CO)S2)cc1F,CBMC,RT-M184V,RT activity,HXB2D (RT-M184V),2.12
CC(C)Nc1cccnc1N1CCN(C(=O)c2cc3cc(NS(C)(=O)=O)ccc3[nH]2)CC1,CEM,RT-K103N,cytopathic effect,Y-1 (RT-K103N),200
Nc1nc(=O)n([C@@H]2CS[C@H](CO)O2)cc1F,HT4 + HT4 LacZ-1,RT-D67N K70R T215F K219Q,plaque count,RTMC (RT D67N K70R T215F K219Q),7.11
C=C(CC(=O)O)c1ccc(OCCc2cnc3c(c2)C(=O)N(C)c2cccnc2N3CC)c2ccccc12,C8166,RT-K103N Y181C,p24,,1–10
CC(=O)Oc1ccc(/C=C/C(=O)O[C@H](C(=O)O)[C@H](OC(=O)/C=C/c2ccc(OC(C)=O)c(OC(C)=O)c2)C(=O)O)cc1OC(C)=O,MT-4,AR177-resistant,cytopathic effect / MTT,NL4-3,>12
Cc1cccc(C)c1OCC(=O)N[C@@H](Cc1ccccc1)[C@H](O)CN1CC[C@@H](Sc2ccncc2)C[C@H]1C(=O)NC(C)(C)C,C8166,PR-V32I A71V,p24,BILA1906-resistant (PR V32I A71V),4
CC(C)=CCN1c2cc(Cl)cc3[nH]c(=S)n(c23)C[C@@H]1C,MT-4,RT-L74V L100I,,,4
Nc1nc(NC2CC2)c2ncn([C@H]3C=C[C@@H](CO)C3)c2n1,PBMC,RT-M41L D67N T69N K70R T215F K219E,RT activity,7324-1 NRTI resistant recombinant,4.2
Clc1nc(Cl)c2[nH]cnc2n1,CD4+HELA + HeLa,RT-M184V,p24,,0.455
CCN1c2ncc(CCOc3ccc(C(=O)O)c4c3CCCC4)cc2C(=O)N(C)c2cccnc21,C8166,RT-K103N Y181C,p24,,1
Cc1ccnc2c1NC(=O)c1cccnc1N2C1CC1,H9,RT-L100I V106A G190A,p24,B9 (RT L100I V106A G190A),>111
CCc1c(Sc2ccccn2)n(COCc2ccccc2)c(=O)[nH]c1=O,CEM + CEM-SS,RT-D67N K70R Y181C T215Y K219Q,cytopathic effect / XTT,4XAZT+Y181C (RT D67N K70R Y181C T215Y K219Q),17.8
CCN1c2ncc(CCOc3ccc(C(=O)O)c4ccccc34)cc2C(=O)N(C)c2cccnc21,C8166,RT-K103N Y181C,p24,,1
O=P(O)(O)Cc1cc2c(O)c(c1)Sc1cc(CP(=O)(O)O)cc(c1O)Sc1cc(CP(=O)(O)O)cc(c1O)Sc1cc(CP(=O)(O)O)cc(c1O)S2,TZM-bl + MT-2,NNRTI-resistant,luciferase,,0.6
Cc1cn([C@H]2C[C@H](N=[N+]=[N-])[C@@H](CO)O2)c(=O)[nH]c1=O,CEM + CEM-SS,RT-D67N K70R L100I T215Y K219Q,cytopathic effect / XTT,4XAZT+L100I (RT D67N K70R L100I T215Y K219Q),20

The last 5 rows once more:

structure	cell line	changes	method	strain	result
Cc1ccnc2c1NC(=O)c1cccnc1N2C1CC1	H9	RT-L100I V106A G190A	p24	B9 (RT L100I V106A G190A)	>111
CCc1c(Sc2ccccn2)n(COCc2ccccc2)c(=O)[nH]c1=O	CEM + CEM-SS	RT-D67N K70R Y181C T215Y K219Q	cytopathic effect / XTT	4XAZT+Y181C (RT D67N K70R Y181C T215Y K219Q)	17.8
CCN1c2ncc(CCOc3ccc(C(=O)O)c4ccccc34)cc2C(=O)N(C)c2cccnc21	C8166	RT-K103N Y181C	p24		1
O=P(O)(O)Cc1cc2c(O)c(c1)Sc1cc(CP(=O)(O)O)cc(c1O)Sc1cc(CP(=O)(O)O)cc(c1O)Sc1cc(CP(=O)(O)O)cc(c1O)S2	TZM-bl + MT-2	NNRTI-resistant	luciferase		0.6
Cc1cn([C@H]2C[C@H](N=[N+]=[N-])[C@@H](CO)O2)c(=O)[nH]c1=O	CEM + CEM-SS	RT-D67N K70R L100I T215Y K219Q	cytopathic effect / XTT	4XAZT+L100I (RT D67N K70R L100I T215Y K219Q)	20

a–b is a range or a potency band. Fold resistance: result on the changed form divided by that on wild type. An empty or dashed field is not shown.